Reference: paper PMC4216207 (Journal of Medicinal Chemistry, 2014)

System: lentiviral vector harboring WT IN
Format: cell-based, HIV-1

Row | SMILES | SI (selectivity index)
1 | O=C(NCc1ccc(F)cc1F)c1c(Nc2ccccc2)c2cccnc2n(O)c1=O [5e, N-(2,4-Difluorobenzyl)-1-hydroxy-2-oxo-4-(phenylamino)-1,2-dihydro-1,8-naphthyridine-3-carboxamide] | >17857
2 | CNc1c(C(=O)NCc2ccc(F)cc2F)c(=O)n(O)c2ncccc12 [5f, N-(2,4-Difluorobenzyl)-1-hydroxy-4-(methylamino)-2-oxo-1,2-dihydro-1,8-naphthyridine-3-carboxamide] | >80645
3 | O=C(NCc1ccc(F)cc1F)c1c(NCCc2ccccc2)c2cccnc2n(O)c1=O [5j, N-(2,4-Difluorobenzyl)-1-hydroxy-2-oxo-4-(phenethylamino)-1,2-dihydro-1,8-naphthyridine-3-carboxamide] | >17857
4 | CC(C)Nc1c(C(=O)NCc2ccc(F)cc2F)c(=O)n(O)c2ncccc12 [5m, N-(2,4-Difluorobenzyl)-1-hydroxy-4-(isopropylamino)-2-oxo-1,2-dihydro-1,8-naphthyridine-3-carboxamide] | >34722
